Assay: Selectivity ratio of IC50 for human recombinant DHFR to IC50 for histidine-tagged Bacillus anthracis Sterne recombinant DHFR

| Structure (SMILES) | Ratio IC50 |
| --- | --- |
| COc1cc(Cc2cnc(N)nc2N)cc(/C=C/C(=O)N2N=Cc3ccccc3C2C2CCCCC2)c1OC (centres undefined) | > 73 |
| COc1cc(Cc2cnc(N)nc2N)cc(/C=C/C(=O)N2N=Cc3ccccc3C2CCCO)c1OC (centres undefined) | > 208 |
| COc1cc(Cc2cnc(N)nc2N)cc(/C=C/C(=O)N2N=Cc3ccccc3C2c2ccccc2CN(C)C)c1OC (centres undefined) | > 105 |
| COc1cc(Cc2cnc(N)nc2N)cc(/C=C/C(=O)N2N=Cc3ccccc3C2c2ccccc2)c1OCCN1CCOCC1 (centres undefined) | > 124 |
| COc1cc(Cc2cnc(N)nc2N)cc(/C=C/C(=O)N2N=Cc3ccccc3C2c2ccc(CO)cc2)c1O (centres undefined) | > 348 |
| COC(=O)C(C)(C)C1c2ccccc2C=NN1C(=O)/C=C/c1cc(Cc2cnc(N)nc2N)cc(OC)c1OC (centres undefined) | 2710 |
| COc1cc(Cc2cnc(N)nc2N)cc(CCC(=O)N2N=Cc3ccccc3C2C)c1OC (centres undefined) | > 304 |
| COc1cc(Cc2cnc(N)nc2N)cc(/C=C/C(=O)N2N=Cc3ccccc3C2c2ccc(CO)cc2)c1OC (centres undefined) | > 237 |
| COc1ncc(C2c3ccccc3C=NN2C(=O)/C=C/c2cc(Cc3cnc(N)nc3N)cc(OC)c2OC)c(OC)n1 (centres undefined) | > 37 |

Reference: ChEMBL document CHEMBL1151424, “In vitro efficacy of new antifolates against trimethoprim-resistant Bacillus anthracis” (Antimicrob Agents Chemother, 2007)
